Measurements reported in PMC7616463 (Journal of medicinal chemistry, 2024).

test: general procedure: solution-phase peptide synthesis; T3P, NMM; settings: coupling step

First: tert-Butyl (3S,6S,12R)-6-((S)-sec-butyl)-3-cyclopentyl-1,4,7,10-tetraoxo-1-(6-phenyl-pyridin-2-yl)-12-((3aS,4S,6S,7aR)-3a,5,5-trimethylhexahydro-4,6-methanobenzo[d] [1,3,2]dioxaborol-2-yl)-2,5,8,11-tetraazapentadecan-15-oate (24b)
Second: tert-Butyl (3S,6S,12R)-6-((S)-sec-butyl)-3-cyclopentyl-1,4,7,10-tetraoxo-1-(quinolin-2-yl)-12-((3aS,4S,6S,7aR)-3a,5,5-trimethylhexahydro-4,6-methanobenzo[d][1,3,2] dioxaborol-2-yl)-2,5,8,11-tetraazapentadecan-15-oate (24a)
The step yield of the first is lower: 39% for the first, 55% for the second.

Compared with “tert-Butyl (3S,6S,12R)-6-((S)-sec-butyl)-3-cyclopentyl-1-(3,5-dimethylphenyl)-1,4,7, 10-tetraoxo-12-((3aS,4S,6S,7aR)-3a,5,5-trimethylhexahydro-4,6-methanobenzo[d] [1,3,2]dioxaborol-2-yl)-2,5,8,11-tetraazapentadecan-15-oate (24c)”, “tert-Butyl ((S)-1-cyclopentyl-2-(((2S,3S)-3-methyl-1-oxo-1-((2-oxo-2-(((R)-1-((3aS,4S, 6S,7aR)-3a,5,5-trimethylhexahydro-4,6-methanobenzo[d][1,3,2]dioxaborol-2-yl) ethyl)amino)ethyl)amino)pentan-2-yl)amino)-2-oxoethyl)carbamate” is higher in step yield: 37% for the first, 73% for the second.

same assay, conditions: late stage modification step

Compared with “N-((S)-1-cyclopentyl-2-(((2S,3S)-1-((2-(((R)-2-hydroxy-6-oxo-1,2-oxaborinan-3-yl)amino)-2-oxoethyl)amino)-3-methyl-1-oxopentan-2-yl)amino)-2-oxoethyl)-6-phenylpicolinamide (4b)”, “N-((S)-1-cyclopentyl-2-(((2S,3S)-3-methyl-1-oxo-1-((2-oxo-2-(((R)-1-((3aS,4S,6S, 7aR)-3a,5,5-trimethylhexahydro-4,6-methanobenzo[d][1,3,2]dioxaborol-2-yl)ethyl) amino)ethyl)amino)pentan-2-yl)amino)-2-oxoethyl)-3,5-dimethylbenzamide” is lower in step yield: 93% for the first, 64% for the second.

First: N-((S)-1-cyclopentyl-2-(((2S,3S)-3-methyl-1-oxo-1-((2-oxo-2-(((R)-1-((3aS,4S,6S, 7aR)-3a,5,5-trimethylhexahydro-4,6-methanobenzo[d][1,3,2]dioxaborol-2-yl)ethyl) amino)ethyl)amino)pentan-2-yl)amino)-2-oxoethyl)cyclobutanecarboxamide
Second: N-((S)-1-cyclopentyl-2-(((2S,3S)-3-methyl-1-oxo-1-((2-oxo-2-(((R)-1-((3aS,4S, 6S,7aR)-3a,5,5-trimethylhexahydro-4,6-methanobenzo[d][1,3,2]dioxaborol-2-yl) ethyl)amino)ethyl)amino)pentan-2-yl)amino)-2-oxoethyl)benzamide
The step yield of the first is lower: 55% for the first, 62% for the second.

Going from “N-((S)-1-cyclopentyl-2-(((2S,3S)-3-methyl-1-oxo-1-((2-oxo-2-(((R)-1-((3aS,4S, 6S,7aR)-3a,5,5-trimethylhexahydro-4,6-methanobenzo[d][1,3,2]dioxaborol-2-yl)ethyl) amino) ethyl)amino)pentan-2-yl)amino)-2-oxoethyl)quinoline-2-carboxamide” to “N-((S)-1-cyclopentyl-2-(((2S,3S)-3-methyl-1-oxo-1-((2-oxo-2-(((R)-1-((3aS,4S, 6S,7aR)-3a,5,5-trimethylhexahydro-4,6-methanobenzo[d][1,3,2]dioxaborol-2-yl)ethyl)amino)ethyl)amino)pentan-2-yl)amino)-2-oxoethyl)-6-phenylpicolinamide”, the step yield rises from 63% to 64%.
